# Several values for one entry are separate records, joined by “and”; a condition that tells them apart may be missing. Equal values may be shown once. Read-outs that look alike come from different tables or passages of the source.
# Protein sequences, listed by entry. Tags and fused reporters are not part of them. Lines headed by an entry give the natural chain unless they say otherwise; changes in a name come on top. Residues count along the entry.
# UniProt P29376, 17-864: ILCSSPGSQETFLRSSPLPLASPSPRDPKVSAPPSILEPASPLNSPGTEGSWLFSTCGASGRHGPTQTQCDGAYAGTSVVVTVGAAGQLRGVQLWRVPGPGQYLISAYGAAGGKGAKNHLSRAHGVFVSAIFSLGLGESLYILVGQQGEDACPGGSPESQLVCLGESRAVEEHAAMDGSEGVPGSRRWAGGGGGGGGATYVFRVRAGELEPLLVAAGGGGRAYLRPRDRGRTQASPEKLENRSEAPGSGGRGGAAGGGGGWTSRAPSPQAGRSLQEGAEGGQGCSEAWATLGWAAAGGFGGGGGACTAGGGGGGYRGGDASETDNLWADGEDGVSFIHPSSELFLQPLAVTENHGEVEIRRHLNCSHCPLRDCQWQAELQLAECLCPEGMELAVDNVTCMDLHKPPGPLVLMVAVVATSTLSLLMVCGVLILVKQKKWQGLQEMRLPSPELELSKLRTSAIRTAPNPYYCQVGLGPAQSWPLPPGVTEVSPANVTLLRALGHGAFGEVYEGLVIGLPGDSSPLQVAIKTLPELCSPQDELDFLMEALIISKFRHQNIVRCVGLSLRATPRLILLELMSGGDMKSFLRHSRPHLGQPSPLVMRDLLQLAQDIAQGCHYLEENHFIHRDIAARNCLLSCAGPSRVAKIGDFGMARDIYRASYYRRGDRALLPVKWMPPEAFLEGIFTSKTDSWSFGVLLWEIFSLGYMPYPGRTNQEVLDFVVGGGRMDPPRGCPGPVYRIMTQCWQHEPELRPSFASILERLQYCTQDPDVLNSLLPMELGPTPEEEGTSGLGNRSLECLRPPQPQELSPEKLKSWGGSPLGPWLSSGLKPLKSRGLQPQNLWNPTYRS
# UniProt P42681: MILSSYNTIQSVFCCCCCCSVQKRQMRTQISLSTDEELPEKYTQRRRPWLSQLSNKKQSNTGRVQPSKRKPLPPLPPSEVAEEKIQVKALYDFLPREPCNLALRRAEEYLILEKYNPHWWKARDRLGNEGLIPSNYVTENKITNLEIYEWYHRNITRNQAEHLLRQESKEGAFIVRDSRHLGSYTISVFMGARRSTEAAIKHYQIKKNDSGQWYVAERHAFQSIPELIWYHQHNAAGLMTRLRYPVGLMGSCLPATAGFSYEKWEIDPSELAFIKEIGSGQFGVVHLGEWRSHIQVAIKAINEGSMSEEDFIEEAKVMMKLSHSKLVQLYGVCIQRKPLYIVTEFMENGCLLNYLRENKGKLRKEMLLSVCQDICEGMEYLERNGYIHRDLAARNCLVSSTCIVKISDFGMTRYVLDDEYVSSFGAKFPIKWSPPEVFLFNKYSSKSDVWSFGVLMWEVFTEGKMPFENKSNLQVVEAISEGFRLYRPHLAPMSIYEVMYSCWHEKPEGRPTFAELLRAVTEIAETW
# UniProt Q9BXA6: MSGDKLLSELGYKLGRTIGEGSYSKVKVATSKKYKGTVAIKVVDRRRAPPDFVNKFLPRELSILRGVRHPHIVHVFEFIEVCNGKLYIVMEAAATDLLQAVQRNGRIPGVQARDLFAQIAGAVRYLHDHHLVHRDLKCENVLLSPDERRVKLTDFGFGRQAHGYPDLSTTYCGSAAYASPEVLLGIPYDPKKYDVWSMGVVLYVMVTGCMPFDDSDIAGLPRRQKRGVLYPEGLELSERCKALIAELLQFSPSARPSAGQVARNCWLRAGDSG
# UniProt Q92918, whole entry: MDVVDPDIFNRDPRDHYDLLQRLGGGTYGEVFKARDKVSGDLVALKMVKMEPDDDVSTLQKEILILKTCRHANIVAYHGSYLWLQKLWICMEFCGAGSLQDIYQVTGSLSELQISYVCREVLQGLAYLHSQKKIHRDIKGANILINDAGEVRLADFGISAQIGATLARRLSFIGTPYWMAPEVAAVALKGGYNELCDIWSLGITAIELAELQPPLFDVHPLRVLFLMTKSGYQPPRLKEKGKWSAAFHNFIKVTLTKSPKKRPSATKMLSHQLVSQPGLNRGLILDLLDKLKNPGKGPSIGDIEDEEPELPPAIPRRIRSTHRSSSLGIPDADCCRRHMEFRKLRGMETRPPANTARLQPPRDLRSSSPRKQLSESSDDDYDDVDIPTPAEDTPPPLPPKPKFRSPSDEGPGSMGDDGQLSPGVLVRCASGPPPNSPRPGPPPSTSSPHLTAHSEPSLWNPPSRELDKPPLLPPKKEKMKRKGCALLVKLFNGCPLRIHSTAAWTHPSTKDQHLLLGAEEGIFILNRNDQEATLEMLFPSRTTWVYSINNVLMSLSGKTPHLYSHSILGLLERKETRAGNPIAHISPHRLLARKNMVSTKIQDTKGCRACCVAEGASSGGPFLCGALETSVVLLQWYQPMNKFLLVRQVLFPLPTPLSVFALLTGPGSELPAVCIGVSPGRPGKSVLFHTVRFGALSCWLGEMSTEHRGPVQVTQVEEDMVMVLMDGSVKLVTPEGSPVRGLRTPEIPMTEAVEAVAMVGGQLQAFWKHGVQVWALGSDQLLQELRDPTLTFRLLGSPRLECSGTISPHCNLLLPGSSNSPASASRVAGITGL
# UniProt P06493, whole entry: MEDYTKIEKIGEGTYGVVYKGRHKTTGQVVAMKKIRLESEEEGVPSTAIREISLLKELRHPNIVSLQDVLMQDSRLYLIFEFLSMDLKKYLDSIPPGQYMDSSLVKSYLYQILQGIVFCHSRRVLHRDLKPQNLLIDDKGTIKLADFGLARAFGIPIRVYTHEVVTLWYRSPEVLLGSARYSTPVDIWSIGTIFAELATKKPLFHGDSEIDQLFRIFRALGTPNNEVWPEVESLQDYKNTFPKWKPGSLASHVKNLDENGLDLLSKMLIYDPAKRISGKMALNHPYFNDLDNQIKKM
# UniProt Q9UK32, whole entry: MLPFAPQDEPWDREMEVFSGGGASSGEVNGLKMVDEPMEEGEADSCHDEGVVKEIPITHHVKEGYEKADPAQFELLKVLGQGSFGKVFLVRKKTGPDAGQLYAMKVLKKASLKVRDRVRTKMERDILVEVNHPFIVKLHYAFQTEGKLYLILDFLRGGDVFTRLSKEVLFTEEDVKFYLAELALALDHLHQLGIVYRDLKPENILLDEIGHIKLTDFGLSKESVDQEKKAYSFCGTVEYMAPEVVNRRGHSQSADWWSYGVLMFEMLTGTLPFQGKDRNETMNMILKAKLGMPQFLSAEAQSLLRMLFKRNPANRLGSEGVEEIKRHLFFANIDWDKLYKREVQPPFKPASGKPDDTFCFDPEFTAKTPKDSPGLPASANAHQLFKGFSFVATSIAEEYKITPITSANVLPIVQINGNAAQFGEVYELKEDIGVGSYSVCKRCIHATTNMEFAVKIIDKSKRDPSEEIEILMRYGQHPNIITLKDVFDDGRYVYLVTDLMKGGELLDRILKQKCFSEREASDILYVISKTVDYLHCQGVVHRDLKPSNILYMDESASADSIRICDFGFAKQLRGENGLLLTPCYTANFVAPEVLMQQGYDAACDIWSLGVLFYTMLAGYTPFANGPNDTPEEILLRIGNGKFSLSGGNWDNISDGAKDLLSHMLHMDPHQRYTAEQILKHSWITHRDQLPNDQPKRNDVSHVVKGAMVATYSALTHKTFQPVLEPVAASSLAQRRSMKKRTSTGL
# UniProt Q96GD4, whole entry: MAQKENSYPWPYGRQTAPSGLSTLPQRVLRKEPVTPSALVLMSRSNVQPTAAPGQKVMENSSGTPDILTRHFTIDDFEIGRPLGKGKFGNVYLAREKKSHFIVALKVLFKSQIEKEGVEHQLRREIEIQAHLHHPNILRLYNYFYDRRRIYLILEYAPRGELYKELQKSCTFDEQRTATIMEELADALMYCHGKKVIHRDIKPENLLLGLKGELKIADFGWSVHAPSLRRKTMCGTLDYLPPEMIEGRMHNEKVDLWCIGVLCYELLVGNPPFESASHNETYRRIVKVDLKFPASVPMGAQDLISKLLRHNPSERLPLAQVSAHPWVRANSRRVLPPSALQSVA
# UniProt P50750, whole entry: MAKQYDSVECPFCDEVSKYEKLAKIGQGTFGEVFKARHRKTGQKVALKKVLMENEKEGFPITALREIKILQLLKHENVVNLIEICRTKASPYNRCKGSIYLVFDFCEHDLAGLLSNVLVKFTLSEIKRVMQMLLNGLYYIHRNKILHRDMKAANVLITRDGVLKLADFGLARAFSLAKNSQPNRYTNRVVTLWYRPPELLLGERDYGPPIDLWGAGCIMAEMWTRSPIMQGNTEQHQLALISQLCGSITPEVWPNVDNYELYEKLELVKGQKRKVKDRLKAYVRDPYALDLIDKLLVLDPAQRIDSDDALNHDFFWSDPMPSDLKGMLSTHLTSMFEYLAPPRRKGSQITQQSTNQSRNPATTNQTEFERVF
# UniProt O94804: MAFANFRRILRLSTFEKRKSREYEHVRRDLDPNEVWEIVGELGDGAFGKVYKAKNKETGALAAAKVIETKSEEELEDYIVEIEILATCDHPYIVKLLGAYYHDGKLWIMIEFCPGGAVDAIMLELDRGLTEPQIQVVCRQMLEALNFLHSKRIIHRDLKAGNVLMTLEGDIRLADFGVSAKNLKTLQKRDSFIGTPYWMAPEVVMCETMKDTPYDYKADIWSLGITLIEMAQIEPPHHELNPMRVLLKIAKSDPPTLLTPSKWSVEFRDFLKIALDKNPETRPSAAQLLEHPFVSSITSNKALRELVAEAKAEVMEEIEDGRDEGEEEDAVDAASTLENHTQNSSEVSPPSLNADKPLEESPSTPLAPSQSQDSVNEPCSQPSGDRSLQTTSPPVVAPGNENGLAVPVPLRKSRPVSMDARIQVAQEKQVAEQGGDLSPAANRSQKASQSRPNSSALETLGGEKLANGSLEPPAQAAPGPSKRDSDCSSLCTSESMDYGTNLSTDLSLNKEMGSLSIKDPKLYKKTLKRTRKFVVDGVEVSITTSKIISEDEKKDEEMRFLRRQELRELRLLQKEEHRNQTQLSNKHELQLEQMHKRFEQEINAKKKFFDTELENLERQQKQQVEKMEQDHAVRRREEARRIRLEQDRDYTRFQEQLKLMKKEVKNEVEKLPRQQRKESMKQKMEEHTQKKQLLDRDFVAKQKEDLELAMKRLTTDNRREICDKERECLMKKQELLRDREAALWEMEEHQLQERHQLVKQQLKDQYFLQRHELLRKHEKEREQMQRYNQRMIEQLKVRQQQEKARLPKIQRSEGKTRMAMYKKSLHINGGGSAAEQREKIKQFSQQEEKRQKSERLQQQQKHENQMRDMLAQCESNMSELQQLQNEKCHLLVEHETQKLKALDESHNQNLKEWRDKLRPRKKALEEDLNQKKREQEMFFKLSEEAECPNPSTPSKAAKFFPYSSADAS
# UniProt P42679: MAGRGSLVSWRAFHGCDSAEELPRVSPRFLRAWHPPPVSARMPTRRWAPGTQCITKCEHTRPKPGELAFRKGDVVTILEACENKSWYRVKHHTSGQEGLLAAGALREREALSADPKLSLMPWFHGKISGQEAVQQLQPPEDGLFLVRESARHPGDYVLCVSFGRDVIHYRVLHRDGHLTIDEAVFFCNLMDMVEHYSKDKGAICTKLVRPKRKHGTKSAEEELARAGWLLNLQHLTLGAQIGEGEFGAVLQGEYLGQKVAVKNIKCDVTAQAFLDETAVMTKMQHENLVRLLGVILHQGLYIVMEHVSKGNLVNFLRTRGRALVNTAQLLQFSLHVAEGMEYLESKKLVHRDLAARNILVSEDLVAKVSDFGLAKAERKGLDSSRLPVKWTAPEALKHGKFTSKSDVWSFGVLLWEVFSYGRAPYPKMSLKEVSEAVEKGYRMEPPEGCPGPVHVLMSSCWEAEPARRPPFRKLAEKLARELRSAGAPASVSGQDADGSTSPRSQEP
# UniProt Q9UHD2: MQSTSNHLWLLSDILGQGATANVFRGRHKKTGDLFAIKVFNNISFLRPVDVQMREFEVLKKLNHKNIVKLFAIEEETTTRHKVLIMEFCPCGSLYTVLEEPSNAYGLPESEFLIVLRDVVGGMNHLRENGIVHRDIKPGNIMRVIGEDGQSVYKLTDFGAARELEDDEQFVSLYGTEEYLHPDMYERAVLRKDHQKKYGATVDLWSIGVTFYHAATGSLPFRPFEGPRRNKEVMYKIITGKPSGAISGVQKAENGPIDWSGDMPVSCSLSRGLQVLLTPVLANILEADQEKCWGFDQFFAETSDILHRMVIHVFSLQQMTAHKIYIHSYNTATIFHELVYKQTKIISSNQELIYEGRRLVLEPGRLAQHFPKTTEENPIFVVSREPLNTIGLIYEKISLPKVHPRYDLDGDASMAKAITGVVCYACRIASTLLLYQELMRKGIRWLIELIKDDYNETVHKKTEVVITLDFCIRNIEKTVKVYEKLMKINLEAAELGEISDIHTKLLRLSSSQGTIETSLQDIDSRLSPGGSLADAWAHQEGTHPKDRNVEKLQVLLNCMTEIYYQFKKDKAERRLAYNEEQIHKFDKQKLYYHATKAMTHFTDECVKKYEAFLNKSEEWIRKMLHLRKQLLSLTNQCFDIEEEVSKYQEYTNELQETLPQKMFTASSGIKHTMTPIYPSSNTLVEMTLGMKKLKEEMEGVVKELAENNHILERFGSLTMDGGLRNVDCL
# Columns and labels:
# [1] = target: T1, TYK1/LTK (Homo sapiens, UniProt P29376); experiment: HotSpot kinase assay; assay type: biochemical; conditions: 10µM
# T1 construct: purchased Reaction Biology Corporation
# [2] = target: T2, TLK1 (Homo sapiens, UniProt Q9UKI8); experiment: HotSpot kinase assay; assay type: biochemical; conditions: 10µM
# T2 construct: purchased Reaction Biology Corporation
# [3] = target: T3, DMPK (Homo sapiens, UniProt Q09013); experiment: HotSpot kinase assay; assay type: biochemical; conditions: 10µM
# T3 construct: purchased Reaction Biology Corporation
# [4] = target: T4, GRK5 (Homo sapiens, UniProt P34947); experiment: HotSpot kinase assay; assay type: biochemical; conditions: 10µM
# T4 construct: purchased Reaction Biology Corporation
# [5] = target: T5, FES/FPS (Homo sapiens, UniProt P07332); experiment: HotSpot kinase assay; assay type: biochemical; conditions: 10µM
# T5 construct: purchased Reaction Biology Corporation
# [6] = target: T6, TXK (Homo sapiens, UniProt P42681); experiment: HotSpot kinase assay; assay type: biochemical; conditions: 10µM
# T6 construct: purchased Reaction Biology Corporation
# [7] = target: T7, SSTK/TSSK6 (Homo sapiens, UniProt Q9BXA6); experiment: HotSpot kinase assay; assay type: biochemical; conditions: 10µM
# T7 construct: purchased Reaction Biology Corporation
# [8] = target: T8, HPK1/MAP4K1 (Homo sapiens, UniProt Q92918); experiment: HotSpot kinase assay; assay type: biochemical; conditions: 10µM
# T8 construct: purchased Reaction Biology Corporation
# [9] = target: T9, CAMK2a (Homo sapiens, UniProt Q9UQM7); experiment: HotSpot kinase assay; assay type: biochemical; conditions: 10µM
# T9 construct: purchased Reaction Biology Corporation
# [10] = target: T10, CDK1/cyclin B (Homo sapiens, UniProt P06493); experiment: HotSpot kinase assay; assay type: biochemical; conditions: 10µM
# T10 construct: purchased Reaction Biology Corporation
# [11] = target: T11, DYRK2 (Homo sapiens, UniProt Q92630); experiment: HotSpot kinase assay; assay type: biochemical; conditions: 10µM
# T11 construct: purchased Reaction Biology Corporation
# [12] = system: SARS-CoV-2 (WA1/2020); experiment: SARS-CoV-2 infection of Huh-7.5 cells (nucleocapsid staining); conditions: 24h
# [13] = target: T12, RSK4 (Homo sapiens, UniProt Q9UK32); experiment: HotSpot kinase assay; assay type: biochemical; conditions: 10µM
# T12 construct: purchased Reaction Biology Corporation
# [14] = target: T13, OSR1/OXSR1 (Homo sapiens, UniProt O95747); experiment: HotSpot kinase assay; assay type: biochemical; conditions: 10µM
# T13 construct: purchased Reaction Biology Corporation
# [15] = target: T14, Aurora B (Homo sapiens, UniProt Q96GD4); experiment: HotSpot kinase assay; assay type: biochemical; conditions: 10µM
# T14 construct: purchased Reaction Biology Corporation
# [16] = target: T15, CDK9/cyclin T2 (Homo sapiens, UniProt P50750); experiment: HotSpot kinase assay; assay type: biochemical; conditions: 10µM
# T15 construct: purchased Reaction Biology Corporation
# [17] = target: T16, MEKK3 (Homo sapiens, UniProt Q99759); experiment: HotSpot kinase assay; assay type: biochemical; conditions: 10µM
# T16 construct: purchased Reaction Biology Corporation
# [18] = system: VSV-S; assay type: cell-based, VSV pseudotyped with SARS-CoV-2 spike
# [19] = target: T17, MELK (Homo sapiens, UniProt Q14680); experiment: HotSpot kinase assay; assay type: biochemical; conditions: 10µM
# T17 construct: purchased Reaction Biology Corporation
# [20] = target: T18, LOK/STK10 (Homo sapiens, UniProt O94804); experiment: HotSpot kinase assay; assay type: biochemical; conditions: 10µM
# T18 construct: purchased Reaction Biology Corporation
# [21] = target: T19, CTK/MATK (Homo sapiens, UniProt P42679); experiment: HotSpot kinase assay; assay type: biochemical; conditions: 10µM
# T19 construct: purchased Reaction Biology Corporation
# [22] = target: T20, MEKK2 (Homo sapiens, UniProt Q9Y2U5); experiment: HotSpot kinase assay; assay type: biochemical; conditions: 10µM
# T20 construct: purchased Reaction Biology Corporation
# [23] = target: T21, CK1a1L (Homo sapiens, UniProt Q8N752); experiment: HotSpot kinase assay; assay type: biochemical; conditions: 10µM
# T21 construct: purchased Reaction Biology Corporation
# [24] = target: T22, ACK1 (Homo sapiens, UniProt Q07912); experiment: HotSpot kinase assay; assay type: biochemical; conditions: 10µM
# T22 construct: purchased Reaction Biology Corporation
# [25] = target: T23, TBK1 (Homo sapiens, UniProt Q9UHD2); experiment: HotSpot kinase assay; assay type: biochemical; conditions: 10µM
# T23 construct: purchased Reaction Biology Corporation
# [26] = target: T24, CLK4 (Homo sapiens, UniProt Q9HAZ1); experiment: HotSpot kinase assay; assay type: biochemical; conditions: 10µM
# T24 construct: purchased Reaction Biology Corporation
# [27] = system: VSV-S; assay type: cell-based, VSV pseudotyped with SARS-CoV-2 spike; remark: listed apart in the source
smiles,measurement,setting,value
CO[C@@H]1[C@H](N(C)C(=O)CCC(=O)NCc2cn(CCCS(=O)(=O)O)nn2)C[C@H]2O[C@]1(C)n1c3ccccc3c3c4c(c5c6ccccc6n2c5c31)C(=O)NC4 [CIMSS],% Enzyme Activity (relative to DMSO controls),[1],6.71%
same,% Enzyme Activity (relative to DMSO controls),[2],25.57%
same,% Enzyme Activity (relative to DMSO controls),[3],73.32%
same,% Enzyme Activity (relative to DMSO controls),[4],7.04%
same,% Enzyme Activity (relative to DMSO controls),[5],2.56%
same,% Enzyme Activity (relative to DMSO controls),[6],3.62%
same,% Enzyme Activity (relative to DMSO controls),[7],94.64%
same,% Enzyme Activity (relative to DMSO controls),[8],2.01%
same,% Enzyme Activity (relative to DMSO controls),[9],1.34%
same,% Enzyme Activity (relative to DMSO controls),[10],13.39%
same,% Enzyme Activity (relative to DMSO controls),[11],8.90%
same,infection (SARS-CoV-2 positive cells relative to the DMSO control),[12]; 1.5625 uM,94.43% and 80.34% and 112.8366%
same,infection (SARS-CoV-2 positive cells relative to the DMSO control),[12]; 3.125 uM,117.6404% and 65.81% and 78.32%
same,infection (SARS-CoV-2 positive cells relative to the DMSO control),[12]; 25 uM,43.9% and 23.99% and 23%
same,infection (SARS-CoV-2 positive cells relative to the DMSO control),[12]; 50 uM,18.57% and 11.45% and 20.69%
same,infection (SARS-CoV-2 positive cells relative to the DMSO control),"[12]; MOI 0.25, 0.78125 uM",85.81% and 65.46% and 126.7822%
same,% Enzyme Activity (relative to DMSO controls),[13],6.54%
same,% Enzyme Activity (relative to DMSO controls),[14],53.02%
same,% Enzyme Activity (relative to DMSO controls),[15],2.83%
same,% Enzyme Activity (relative to DMSO controls),[16],8.32%
same,% Enzyme Activity (relative to DMSO controls),[17],5.56%
same,VSV-S plaques relative to DMSO control,[18],79.7 and 84 and 70.9 and 80.4
same,VSV-S plaques relative to DMSO control,[18]; conc 1,77.65 and 67.02 and 67.4 and 81.1
same,VSV-S plaques relative to DMSO control,[18]; conc 10,61.7 and 52.1 and 52.57 and 56
same,VSV-S plaques relative to DMSO control,[18]; conc 50,41.48 and 42.55 and 42.2 and 40
same,VSV-S plaques relative to DMSO control,[18]; conc 100,12.76 and 15.95 and 8 and 9.1
same,% Enzyme Activity (relative to DMSO controls),[19],1.31%
same,% Enzyme Activity (relative to DMSO controls),[20],3.02%
same,% Enzyme Activity (relative to DMSO controls),[21],24.07%
same,% Enzyme Activity (relative to DMSO controls),[22],8.26%
same,% Enzyme Activity (relative to DMSO controls),[23],78.55%
same,% Enzyme Activity (relative to DMSO controls),[24],5.60%
same,% Enzyme Activity (relative to DMSO controls),[25],1.90%
same,% Enzyme Activity (relative to DMSO controls),[26],10.10%
same,VSV-S plaques relative to DMSO control,[27],69 and 76.6 and 68.08 and 66.7

# — paper PMC9569420 (Communications Biology, 2022)
